Library screen at single concentrations

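Phenotypic screen: M. tuberculosis growth, glucose 7H9 medium, 3 days; the read-out is not stated. Concentration: 50 µM. Higher reads as more growth inhibition (inferred: compounds with an IC50 in retests scored well above the rest). Of about 69,000 compounds tested this way, about 760 (1.1%) reached 50% or more in at least one test.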

Each number is a percent effect as filed.
How 0% and 100% were set is not recorded. Most values in the screen are low, and negative values occur.
The entries come from a sample that favours strong results.
Two or more numbers in one place are separate tests of the same structure; such repeats can differ widely.

COCCN(C)CC1CCCN1S(=O)(=O)c1cccc(F)c1F (stereo not shown) read 54.18% and 44.81%.
CC(C)c1nc(CN2CCOCC2)cs1 read -19.86%.
Cc1nc(NCc2cccnc2)c2c(n1)c(C)nn2C read -24.14%.
N#Cc1ccc(CN2CCN(C(=O)c3cc(C4CC4)[nH]n3)CC2)cc1 read 34.05%.
CC(C)C(O)C1CCN(c2ccnc(C(=O)NCc3ccco3)c2)CC1 (stereo not shown) read 18.54%.
CC(NCc1ccc(-c2ccc(Cl)cc2)o1)c1nnc2n1CCC2 (stereo not shown) read -10.58%.
Cc1cc(N2CCCC2)c(C#N)c(C)n1 read 8.75%.
Cc1nnc(SCc2ccccn2)s1 read -4.862%.
O=C(O)C(F)(F)F.O=C(O)C(F)(F)F.O=C(O)C(F)(F)F.[H][C@]12C[C@@H](CN3CCCC3)N(C)[C@@]1([H])CCN(Cc1ccoc1)C2 read -3.038% and -37.85%.
CC(O)CN1CCC(CNCc2c[nH]nc2C(C)(C)C)CC1 (stereo not shown) read 8.335%.
O=C(NCCNc1ccc(C(F)(F)F)cn1)c1cncc(Br)c1 read 5.744%.
O=C1CC2(CCSC2)C(=O)N1Cc1ncc(-c2cccc(F)c2)o1 (stereo not shown) read 31.87%.
[H][C@]12CC[C@]([H])(CN(Cc3cc(-c4ccccc4)no3)C1)N(CC1CCC1)C2 read 85.07%.
CN1CCC(N(C)CCC(=O)N2CCN(Cc3cccc(F)c3)CC2)C1 (stereo not shown) read -12.45%.
NCc1n[nH]c(-c2ccc(Br)cc2)n1 read 67.61% and 1.143%.
Cc1ccc(CN(CCCn2ccnc2)Cc2c[nH]nc2C(C)(C)C)s1.O=C(O)CC(O)(CC(=O)O)C(=O)O read 15.22%.
O=C(NCCCN1CCCC1=O)c1ccc(-n2ccc3ccccc32)s1 read 33.08%.
Cn1ncc2c1C(COCC1CC1)CN(Cc1ccsc1)C2 (stereo not shown) read 69.72%.
CCN(Cc1ccncc1)Cc1cn(-c2ccccc2)nn1 read 7.082%.
CC(CN1CCOCC1)NC(=O)c1cc(Cl)c2c(c1)OCO2 (stereo not shown) read 9.891%.
Cc1sc(Br)cc1S(=O)(=O)NCCN.Cl read 54.13%.
COc1ccc(CN2CCCC(N3CCCC3)C2)cc1Cn1cncn1 (stereo not shown) read -15.01%.
Cc1ccc(N2CCCC(c3[nH]ncc3Cc3ccccc3)C2)nn1 (stereo not shown) read 28.3%.
COC(=O)COn1c(OC)nc2ccccc2c1=O read -10.49%.
COc1coc(CN2CCCC(CCc3c(F)cccc3F)C2)cc1=O (stereo not shown) read 54.35% and 40.19%.
O=C(Nc1ccc(F)c(-n2cccc2)c1)NC1(CCO)CCOCC1 read 56.41%.
O=C(CN1CCc2ccccc21)Nc1ccc(OC(F)F)cc1 read -0.5754% and 5.752%.
CN1CCCC1c1cccc(Cc2ccc(F)cc2)n1 (stereo not shown) read 24.23%.
Cc1cc(C(=O)NCc2ccnc(N(C)C)c2)c(C)o1 read -18.17%.
Cn1cc(CNCCNc2ncc(Cl)cc2Cl)cn1 read -35.49%.
Cc1ncsc1C(=O)NCCNC(=O)c1cccs1 read 9.785%.
OC1CCN(Cc2cc3c(cc2Br)OCCO3)CC1 read -4.756% and -10.22%.
O=C(c1cc(-c2cccs2)cs1)N1CCSCC1 read 55.56%.
Fc1cnc(N2CCOCC3(CCCN(c4cnccn4)C3)C2)nc1 (stereo not shown) read 69.89%.
CCn1ccnc1CN(C)C(C(=O)O)c1ccc(C(C)(C)C#N)cc1 (stereo not shown) read 32.18%.
CCc1cc(N(C)Cc2ccno2)n2nc(C)c(C)c2n1 read 10.4%.
Cc1cnc(N2CCN(C)c3ncccc3C2)nc1.O=C(O)C(F)(F)F read -3.726% and -32.17%.
Cc1cc(C(=O)N2CCN(Cc3ccsc3)CC2)n(C)n1 read -4.058%.
CCCS(=O)(=O)N(C)C(=O)CCc1ccccc1 read 28.98%.
COCc1ccc(C(=O)N2CCCN(Cc3ccc(F)cc3)CC2)s1 read -45.6%.
Fc1cccc(Cl)c1CNCCOc1ccccn1 read 0.8919% and 97.69%.
O[C@@H]1CN(c2nc3ccccc3s2)CC[C@H]1c1ccc2c(c1)OCO2 read 20.24%.
OCC1(Cc2ccccc2F)CCCN(c2ccc3ccccc3n2)C1 (stereo not shown) read 19.95%.

For reference, 5 entries once more:

| compound | percent effect |
|---|---|
| `O=C(NCCNc1ccc(C(F)(F)F)cn1)c1cncc(Br)c1` | 5.744 |
| `Cc1ccc(N2CCCC(c3[nH]ncc3Cc3ccccc3)C2)nn1` (stereo not shown) | 28.3 |
| `Cc1nnc(SCc2ccccn2)s1` | -4.862 |
| `CC(C)C(O)C1CCN(c2ccnc(C(=O)NCc3ccco3)c2)CC1` (stereo not shown) | 18.54 |
| `[H][C@]12CC[C@]([H])(CN(Cc3cc(-c4ccccc4)no3)C1)N(CC1CCC1)C2` | 85.07 |

Source: ChEMBL document CHEMBL3988442, “University of Dundee, Small-Polar-MMV Screening Library” (2021).